Source: patent US12629392B2, “Method of treating covid-19 infection using superparamagnetic iron oxide nanoparticle” (Imam Abdulrahman Bin Faisal University, priority 2023, dated 2026)

Test system: A549 cells
Assay: Cell viability (MTT) assay, A549 cells
Conditions: 48 hours, FIG. 5A

## NC(=O)c1ncn([C@@H]2O[C@H](CO)[C@@H](O)[C@H]2O)n1 [Rib, 1-β-D-Ribofuranosyl-1,2,4-triazole-3-carboxamide]
  cell viability / cytotoxic potential (MTT), result in words: significant reduction in cell viability
